A mixed list of measured activities; the numbers were collected in NIAID ChemDB.

All rows: enzyme or target tests; species: HIV-1; protein: Reverse transcriptase; measure: inhibition

Two numbers with a dash give a range or band. Conditions beyond the fields shown may differ between rows. Inhibition is in % at the dose shown (toxicity tests: loss of growth or viability). An empty or dashed field is not shown. "inactive" is the filed call at that dose; no cut-off is given.

| SMILES | dose | changes | read by | conditions | strain | value |
|---|---|---|---|---|---|---|
| CCN1c2ccc(C)cc2N(C)C(=O)c2cc(Cl)nnc21 | 330 µM | - | - | - | - | 55% |
| CCOc1cc(-c2nccc3cc(OC)c(OC)cc23)cc(OCC)c1OCC | 1 µM | - | RT activity | 3 d | - | 38.9% |
| CCOC(CC(=O)OC)n1ccc(=O)[nH]c1=O | 10 µM | - | ELISA | - | - | 65% |
| Nc1nc2c(ncn2[C@@H]2O[C@H](COP(=O)(O)O[C@H]3[C@@H](F)[C@H](n4cnc5c(NCc6ccc7ccccc7c6)ncnc54)O[C@@H]3CO)[C@@H](O)[C@H]2O)c(=O)[nH]1 | 100 µM | - | RT activity | - | - | 7% |
| Cc1ccc(S(=O)(=O)c2c(C)[nH]c3ccccc23)cc1 | 100 µM | K103N | RT activity | - | - | 64% |
| COc1ccc(-c2csc(N3C(=N)SC4C3=NN(c3ccccc3)C4c3ccc(Cl)cc3)n2)cc1 | 100 µg/mL | - | RT activity / absorbance | - | - | 69.84% |
| O=C(NCCc1ccccc1)Nc1cnccn1 | 10 µg/mL | - | nucleotide incorporation | - | - | 36% |
| COC(=O)C(C)CCC[C@H](C)[C@H](O)[C@@H](C)[C@@H](O)[C@@H](C)[C@H](O)[C@H](C)[C@H](CCO[C@@]1(C)Oc2c(C)c(O)c3c(c2C1=O)C(=O)C=C(N)C3=O)OC | 300 µM | - | ELISA | - | - | <20% |
| O=C(NCCc1ccccc1)Nc1nncs1 | 0.1 µg/mL | - | nucleotide incorporation | - | - | 12% |
| CCN1C(=O)c2cncnc2N(CC)c2ccccc21 | 30 µM | - | nucleotide incorporation / radiometric | - | IIIB | 39% |
| O=C(c1ccc(Nc2ccnc3cc(Cl)ccc23)cc1)N1CCOCC1 | 100 µM | - | nucleotide incorporation | - | - | 22% |
| CC(C)Nc1cnccc1N1CCN(C(=O)c2cc3cc(F)ccc3[nH]2)CC1 | 100 µM | - | nucleotide incorporation | - | - | 63–92% |
| CCCN1c2ccc(C)cc2N(C)C(=O)c2ccnnc21 | 33 µM | - | - | - | - | 5% |
| CCOC(=O)CC(OCC)n1cc(F)c(=O)[nH]c1=O | 10 µM | - | ELISA | - | - | 42% |
| O=C(c1ccccc1)N(Cc1cc2ccccc2[nH]c1=O)C1CCCCC1 | 20 µM | - | RT activity / absorbance | - | - | 14.2% |
| CC(C)(C)c1csc(NC(=O)NCCc2ccccc2)n1 | 1 µg/mL | - | nucleotide incorporation | - | - | 8% |
| COc1cccc2cc(CN(C(=O)c3ccccc3)C3CCCCC3)c(=O)[nH]c12 | 20 µM | - | RT activity / absorbance | - | - | -19.4% |
| Fc1cccc(Cl)c1CCNC(=S)Nc1nccs1 | 10 µg/mL | - | nucleotide incorporation | - | - | 92% |
| O=c1[nH]c2ccccc2cc1CNC1CCCC1 | 20 µM | - | RT activity / absorbance | - | - | -16.7% |
| CCNc1cccnc1N1CCN(C(=O)c2cc3ccccc3o2)CC1 | 100 µM | - | nucleotide incorporation | - | - | 83–91% |
| COc1cccc2cc(CN(C(=O)c3ccccc3)C3CCCC3)c(=O)[nH]c12 | 20 µM | - | RT activity / absorbance | - | - | -31.4% |
| CCCCCN1C(=O)c2ccnnc2Oc2ccc(C)cc21 | 330 µM | - | ELISA | - | - | 35% |
| O=C(c1ccc(Nc2ccnc3cc(C(F)(F)F)ccc23)cc1)N1CCN(S(=O)(=O)c2ccc(Cl)cc2)CC1 | 100 µM | - | nucleotide incorporation | - | - | 37% |
| O=C(O)c1cn([C@@H]2O[C@H](CO)[C@@H](O)[C@H]2O)c2ccc(Cl)cc2c1=O | 100 µM | - | - | - | - | 0% |
| CCOC(=O)CC(OCC)n1ccc(=O)[nH]c1=O | 10 µM | - | ELISA | - | - | 70% |
| COC(=O)/C(C)=C\C=C\[C@H](C)[C@H](OC(C)=O)[C@@H](C)[C@@H](OC(C)=O)[C@@H](C)[C@H](OC(C)=O)[C@H](C)[C@H](/C=C/O[C@@]1(C)Oc2c(C)c(O)c3c(c2C1=O)C(=O)C=C(N)C3=O)OC | 300 µM | - | ELISA | - | - | <20% |
| COc1ccc2[nH]c(=O)c(CNC3CCCC3)cc2c1 | 20 µM | - | RT activity / absorbance | - | - | -14.1% |
| Cc1ccc2c(c1)Oc1nnccc1C(=O)N2C | 33 µM | - | ELISA | - | - | 13% |
| Nc1cc(Cc2ccccc2)nc(SCCCc2ccccc2)n1 | 100 µM | - | ELISA | - | - | 0% |
| O=C(NC1CC=C(c2cccc(C(F)(F)F)c2)CC1)c1ccc(Nc2ccnc3cc(C(F)(F)F)ccc23)cc1 | 100 µM | - | nucleotide incorporation | - | - | 29% |
| COC(CC1O[C@H]([C@H](C)[C@@H](O)[C@@H](C)/C=C/C=C(/C)C(=O)NC2=CC(=O)c3c(c(O)c(C)c4oc(C)cc34)C2=O)[C@@H](C)[C@H](OC(C)=O)[C@@H]1C)OC | 300 µM | - | ELISA | - | - | 0% |
| COC(=O)c1cc(O)c(O)c(O)c1 | 200 µM | - | ELISA | - | - | 60.1% |
| NCCS | 1600 µM | - | - | - | - | 32% |
| CN(C)c1c2c(c3nc4ccccc4c4c[nH]c1c34)=NCCC2=O | 1000 µg/mL | - | - | - | - | inactive |
| COc1ccc(-c2csc(N3C(=N)SC4C3=NN(c3ccccc3)C4c3ccccc3)n2)cc1 | 100 µg/mL | - | RT activity / absorbance | - | - | 84.67% |
| O=c1cc(Cc2ccccc2)nc(SCc2ccccc2)[nH]1 | 100 µM | - | ELISA | - | - | 0% |
| CCCN1C(=O)c2cc(Cl)nnc2N(CC)c2ccccc21 | 330 µM | - | - | - | - | 10% |
| CCCN1C(=O)c2ccnnc2Oc2ccc(OC)cc21 | 33 µM | - | ELISA | - | - | 12% |
| O=C(c1ccccc1)N(Cc1cc2ccccc2[nH]c1=O)C1CCCC1 | 20 µM | - | RT activity / absorbance | - | - | 11.3% |
| CC1=C(CC/C(C)=C/CC/C(C)=C/CC/C(=C/C(=O)O)C(=O)O)C(C)(C)CCC1 | 1000 µg/mL | - | - | - | - | 0% |
| CCNc1cccnc1N1CCN(C(=O)c2cc3cc(C(=O)OCc4ccccc4)ccc3[nH]2)CC1 | 100 µM | - | nucleotide incorporation | - | - | 82–95% |
| COc1cccc2cc(CNC3CCCC3)c(=O)[nH]c12 | 20 µM | - | RT activity / absorbance | - | - | -40.1% |
| Nc1nc2c(ncn2[C@@H]2O[C@H](COP(=O)(O)O[C@H]3[C@@H](O)[C@H](n4cnc5c(=O)[nH]c(N)nc54)O[C@@H]3CO)[C@@H](O)[C@H]2O)c(=O)[nH]1 | 100 µM | - | RT activity | - | - | 6% |
| COc1ccc2cc3[n+](cc2c1OC)CCc1cc2c(cc1-3)OCO2 | 100 µM | - | nucleotide incorporation | - | - | 47% |
| Nc1ncnc2c1ncn2[C@@H](C=O)O[C@@H](C=O)COP(=O)(O)OP(=O)(O)OP(=O)(O)O | 100 µM | - | absorbance | - | - | 90% |
| CCOC(=O)CN1C(=O)c2cc(Cl)nnc2Oc2ccccc21 | 330 µM | - | ELISA | - | - | 35% |
| Nc1nc2c(ncn2[C@@H]2O[C@H](COCO[C@H]3[C@@H](O)[C@H](n4cnc5c(=O)[nH]c(N)nc54)O[C@@H]3CO)[C@@H](O)[C@H]2O)c(=O)[nH]1 | 100 µM | - | RT activity | - | - | 14% |
| CCN1C(=O)c2ccnnc2Oc2ccc(OC)cc21 | 330 µM | - | ELISA | - | - | 56% |
| COc1c(O)cc(-c2cc(=O)c3c(O)c(OC)c(O)cc3o2)cc1O | 200 µg/mL | - | RT activity | - | - | 88.1% |
| O=c1cc(-c2ccc(O)c(-c3c(O)cc4oc(-c5ccc(O)cc5)cc(=O)c4c3O)c2)oc2cc(O)cc(O)c12 | 200 µM | - | nucleotide incorporation / radiometric | - | - | 95.5% |
| CCCCOC(=O)CC(OCC)n1cc(C)c(=O)[nH]c1=O | 10 µM | - | ELISA | - | - | 58% |
| COc1ccc2[nH]c(=O)c(CN(C(=O)c3ccccc3)C3CCCCC3)cc2c1 | 20 µM | - | RT activity / absorbance | - | - | 5.9% |
| CCCN1C(=O)c2ccnnc2N(C2CC2)c2ccc(C)cc21 | 330 µM | - | - | - | - | 39% |
| N=C1SC2C(=NN(c3ccccc3)C2c2ccccc2Br)N1c1nc(-c2ccc(Cl)cc2)cs1 | 100 µg/mL | - | RT activity / absorbance | - | - | 90.57% |
| CCN1C(=O)c2ccnnc2N(C2CC2)c2ccccc21 | 330 µM | - | - | - | - | 58% |
| O=C(O)c1cn([C@@H]2O[C@H](CO)[C@@H](O)[C@H]2O)c2cc(Cl)ccc2c1=O | 100 µM | - | - | - | - | 10% |
| O=C(c1ccccc1)N(Cc1cc2ccccc2[nH]c1=O)C1CC1 | 20 µM | - | RT activity / absorbance | - | - | 12% |
| COc1ccc(S(=O)(=O)N2CCN(C(=O)c3ccc(Nc4ccnc5cc(C(F)(F)F)ccc45)cc3)CC2)cc1 | 100 µM | - | nucleotide incorporation | - | - | 27% |
| COc1cccc(CSc2nc(Cl)cc(Cc3ccccc3)n2)c1 | 100 µM | - | ELISA | - | - | 0% |
| CN1C(=O)c2ccnnc2Oc2ccccc21 | 33 µM | - | ELISA | - | - | 17% |
| O=C1C2=C(SCCS2)C(=O)N1CCCCN1CCN(c2ccc(F)cc2)CC1 | 200 µg/mL | - | RT activity | - | - | 82.2% |
| Cc1nc(NC(=O)NCCc2ccccc2)sc1C | 0.1 µg/mL | - | nucleotide incorporation | - | - | 34% |
| CCCN1c2ccc(C)cc2N(CC)C(=O)c2cc(Cl)nnc21 | 33 µM | - | - | - | - | 13% |
| O=C1C2=C(SCCS2)C(=O)N1CCCCN1CCN(Cc2ccccc2)CC1 | 200 µg/mL | - | RT activity | - | - | 82.2% |

5 of the rows above, restated:

{"SMILES": "COc1cccc(CSc2nc(Cl)cc(Cc3ccccc3)n2)c1", "dose": "100 µM", "read by": "ELISA", "value": "0%"}
{"SMILES": "Nc1nc2c(ncn2[C@@H]2O[C@H](COP(=O)(O)O[C@H]3[C@@H](F)[C@H](n4cnc5c(NCc6ccc7ccccc7c6)ncnc54)O[C@@H]3CO)[C@@H](O)[C@H]2O)c(=O)[nH]1", "dose": "100 µM", "read by": "RT activity", "value": "7%"}
{"SMILES": "O=C(NCCc1ccccc1)Nc1nncs1", "dose": "0.1 µg/mL", "read by": "nucleotide incorporation", "value": "12%"}
{"SMILES": "COc1ccc(-c2csc(N3C(=N)SC4C3=NN(c3ccccc3)C4c3ccc(Cl)cc3)n2)cc1", "dose": "100 µg/mL", "read by": "RT activity / absorbance", "value": "69.84%"}
{"SMILES": "CCOC(=O)CC(OCC)n1cc(F)c(=O)[nH]c1=O", "dose": "10 µM", "read by": "ELISA", "value": "42%"}